Results on two substances are retold here after patent US20160089422.

This series has as its system P04156.

Turning to “Active recombinant human MSRB2 (methionine sulfoxide reductase B2), ab95916, Abcam”, the “delay of PrPsc amplification in RT-QuIC” value was “a systematic delay is observed in the vCDJ samples treated with the MSRs”.
As for “Active recombinant human MSRA (methionine sulfoxide reductase A), ab82728, Abcam”, the entry is “a systematic delay is observed in the vCDJ samples treated with the MSRs”.
